## Genome-wide point mutation profile of HIV-1: Gag

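Random point mutant libraries of HIV-1 NL4-3, one for each of seven fragments, were passaged in CEM T lymphocytes. The RC index is the frequency of a change after passage round 2 divided by its frequency in the plasmid library.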

Protein: Gag of HIV-1 NL4-3, numbered from its first residue. Gag is numbered as the whole polyprotein.
"Other frame" gives the effect on an overlapping gene as the source lists it; other overlaps (genes, RNA elements) are not shown.

Values are the RC index; higher means better tolerated. The authors read about 0.1 or less as lethal, 0.1-0.2 as attenuated and 0.2 or more as tolerated.
Each entry names the wild-type residue, its position and the residue put in its place.

| # | mutation | base | region | other frame | replication capacity index |
|---|---|---|---|---|---|
| 1 | G10R | G817A | MA | none | 0.0896 |
| 2 | G10V | G818T | MA | none | 0.101 |
| 3 | Y29H | T874C | MA | none | 0.108 |
| 4 | Y29C | A875G | MA | none | 0.0689 |
| 5 | I34L | A889T | MA | none | 0.108 |
| 6 | I34K | T890A | MA | none | 0.0618 |
| 7 | F44V | T919G | MA | none | 0.122 |
| 8 | E52D | G945C | MA | none | 0.0633 |
| 9 | C57S | T958A | MA | none | 0.0377 |
| 10 | P66S | C985T | MA | none | 0.973 |
| 11 | S67P | T988C | MA | none | 0.181 |
| 12 | L68F | C991T | MA | none | 0.136 |
| 13 | E73V | A1007T | MA | none | 0.0308 |
| 14 | E73D | A1008T | MA | none | 0.0355 |
| 15 | I92K | T1064A | MA | none | 0.0169 |
| 16 | K95R | A1073G | MA | none | 0.160 |
| 17 | T97S | C1079G | MA | none | 0.0761 |
| 18 | E99K | G1084A | MA | none | 0.622 |
| 19 | E99V | A1085T | MA | none | 0.0523 |
| 20 | I104T | T1100C | MA | none | 0.0926 |
| 21 | K113E | A1126G | MA | none | 0.0764 |
| 22 | Q116H | G1137C | MA | none | 0.231 |
| 23 | Q117E | C1138G | MA | none | 0.0333 |
| 24 | T122A | A1153G | MA | none | 0.0427 |
| 25 | S129I | G1175T | MA | none | 0.0925 |
| 26 | N131H | A1180C | MA | none | 0.0285 |
| 27 | N131I | A1181T | MA | none | 0.0549 |
| 28 | Q141L | A1211T | CA | none | 0.0252 |
| 29 | H144D | C1219G | CA | none | 0.0213 |
| 30 | H144Q | T1221A | CA | none | 0.0347 |
| 31 | A146D | C1226A | CA | none | 0.0354 |
| 32 | V158A | T1262C | CA | none | 0.0766 |
| 33 | F172I | T1303A | CA | none | 0.0265 |
| 34 | T186I | C1346T | CA | none | 0.0690 |
| 35 | G192E | G1364A | CA | none | 0.127 |
| 36 | L201S | T1391C | CA | none | 0.0914 |
| 37 | I205M | C1404G | CA | none | 0.0339 |
| 38 | H219Q | T1446A | CA | none | 0.0353 |
| 39 | A220E | C1448A | CA | none | 0.102 |
| 40 | A220G | C1448G | CA | none | 0.0448 |
| 41 | G221V | G1451T | CA | none | 0.121 |
| 42 | P225L | C1463T | CA | none | 0.163 |
| 43 | E230D | A1479T | CA | none | 0.0382 |
| 44 | S234N | G1490A | CA | none | 0.219 |
| 45 | Q246R | A1526G | CA | none | 0.0695 |
| 46 | T251P | A1540C | CA | none | 0.0436 |
| 47 | T251S | A1540T | CA | none | 0.0461 |
| 48 | T251I | C1541T | CA | none | 0.113 |
| 49 | H252D | C1543G | CA | none | 0.0551 |
| 50 | H252Y | C1543T | CA | none | 0.107 |
| 51 | N253S | A1547G | CA | none | 0.0419 |
| 52 | G259R | G1564A | CA | none | 0.181 |
| 53 | W265R | T1582A | CA | none | 0.0686 |
| 54 | V274A | T1610C | CA | none | 0.0727 |
| 55 | S281I | G1631T | CA | none | 0.0357 |
| 56 | T303S | A1696T | CA | none | 0.0536 |
| 57 | A309G | C1715G | CA | none | 0.0686 |
| 58 | W316R | T1735C | CA | none | 0.0615 |
| 59 | M317I | G1740T | CA | none | 0.299 |
| 60 | L321V | T1750G | CA | none | 0.0580 |
| 61 | A326T | G1765A | CA | none | 0.189 |
| 62 | D329N | G1774A | CA | none | 0.128 |
| 63 | R361S | A1872T | CA | none | 0.0116 |
| 64 | V362L | G1873C | CA | none | 0.199 |
| 65 | L363M | T1876A | CA | none | 0.0198 |
| 66 | S368T | G1892C | p2 | none | 0.0620 |
| 67 | F383L | T1936C | NC p7 | none | 0.127 |
| 68 | V390A | T1958C | NC p7 | none | 0.355 |
| 69 | C395R | T1972C | NC p7 | none | 0.0423 |
| 70 | G396C | G1975T | NC p7 | none | 0.126 |
| 71 | W438G | T2101G | p1 | none | 0.0368 |
| 72 | H441Y | C2110T | p1 / p6* | p6* P1L | 0.0561 |

The opening 10 entries, copied out:

G10R (base G817A, region MA) gave 0.0896.
G10V (base G818T, region MA) gave 0.101.
Y29H (base T874C, region MA) gave 0.108.
Y29C (base A875G, region MA) gave 0.0689.
I34L (base A889T, region MA) gave 0.108.
I34K (base T890A, region MA) gave 0.0618.
F44V (base T919G, region MA) gave 0.122.
E52D (base G945C, region MA) gave 0.0633.
C57S (base T958A, region MA) gave 0.0377.
P66S (base C985T, region MA) gave 0.973.

Base changes are numbered along pNL4-3.
An index over 1, which the authors read as above wild type, was rare (1.9% of all changes in the genome).
Since each clone held several changes (about five per kb), neutral changes can read low.

Reference: Al-Mawsawi et al. 2014, doi:10.1186/s12977-014-0124-6.